Source: US20090239285A1, “TANDEM REAPEAT DNA CONSTRUCTS PRODUCING PROTEINS THAT ATTACK PLANT PATHOGENIC VIRUSES, FUNGI, AND BACTERIA BY DISRUPTING TRANSCRIPTION FACTORS ESSENTIAL FOR REPLICATION THEREOF IN PLANTS” (priority 2008, published 2009)

Experiment: Picolinic acid levels in syngenic Cassava plant cells after Geminivirus infection
Type: in vivo

O=C(O)c1ccccn1 [Picolinic acid, 2-pyridine carboxylic acid]
intracellular PA concentration reached (within 3 h): 0.5 mM
basal level of picolinic acid (within 3 h of virus destruction): < 0.5 mM
